Data on two compounds can be found in publication PMC4351682, “Formononetin inhibits enterovirus 71 replication by regulating COX- 2/PGE2 expression” (Virology Journal, 2015).

Molecules are shown by their SMILES.

This series relates to EV71 SHZH98 strain. Put plainly: CPE inhibition assay for anti-EV71 in Vero cells. In kind it is cell-based, enterovirus 71. Particulars: TC50/IC50, EV71 SHZH98, Vero cells. The method, then:
The anti-EV71 activity of formononetin was assayed by CPE inhibition method. Briefly, cells (3 × 10^4 cells/well) were plated into 96-well culture plates for incubation of 24 h. The medium was then removed and cells were infected with EV71 of 80 pfu/well. Then, various concentrations of formononetin were supplemented for incubation of another 48 h. […] The selectivity index (SI) was calculated as the ratio of TC50/IC50 [19].

In turn, `COc1ccc(-c2coc3cc(O)ccc3c2=O)cc1` [Formononetin] came in with an SI of 43.30. The SI (listed as formononetin) was 38.11.

Consider `CCOC(=O)c1ccc(OCCC2CCN(c3ccc(C)nn3)CC2)cc1` [Pirodavir, reference compound], for which the SI is listed as 58.76.
